Assay in all cases: cell-based or functional assay
The target in assay [1] is HIV-1 Env of isolate MG RM-AG-003 (subtype AG) (HIV-1).
Assay [2] has as its target HIV-1 Env of isolate MG RM-A-003 (subtype A) (HIV-1).
Assay [3] concerns the target HIV-1 Env of isolate MG RM-AG-006 (subtype AG) (HIV-1).
The target of assay [4] is HIV-1 Env of isolate MG RM-A-006 (subtype A) (HIV-1).
Assay [5] addresses HIV-1 Env of isolate MG RM-A-008 (subtype A) (HIV-1).
Assay [6] has as its target HIV-1 Env of isolate MG RM-A-010 (subtype A) (HIV-1).
For assay [7], the target named is HIV-1 Env of isolate MG RM-A-014 (subtype A) (HIV-1).
Assay [8] has as its target HIV-1 Env of isolate MG RM-A-004 (subtype A) (HIV-1).
Assay [9] addresses HIV-1 Env of isolate MG RM-AG-011 (subtype AG) (HIV-1).
Assay [10] deals with HIV-1 Env of isolate MG RM-AG-008 (subtype AG) (HIV-1).
Assay [11] addresses HIV-1 Env of isolate MG RM-A-007 (subtype A) (HIV-1).
Assay [12] concerns the target HIV-1 Env of isolate MG RM-A-012 (subtype A) (HIV-1).
The target in assay [13] is HIV-1 Env of isolate MG RM-AG-009 (subtype AG) (HIV-1).
Assay [14] concerns the target HIV-1 Env of isolate MG RM-AG-002 (subtype AG) (HIV-1).
The target in assay [15] is HIV-1 Env of isolate MG RM-A-002 (subtype A) (HIV-1).
For assay [16], the target named is HIV-1 Env of isolate MG RM-AG-012 (subtype AG) (HIV-1).
Assay [17] deals with HIV-1 Env of isolate MG RM-A-005 (subtype A) (HIV-1).
Assay [18] has as its target HIV-1 Env of isolate MG RM-A-011 (subtype A) (HIV-1).
Assay [19] has as its target HIV-1 Env of isolate MG RM-A-009 (subtype A) (HIV-1).
In assay [20] the target is HIV-1 Env of isolate MG RM-AG-001 (subtype AG) (HIV-1).
Assay [21] concerns the target HIV-1 Env of isolate MG RM-A-013 (subtype A) (HIV-1).
Assay [22] concerns the target HIV-1 Env of isolate MG RM-AG-013 (subtype AG) (HIV-1).
In assay [23] the target is HIV-1 Env of isolate MG RM-A-001 (subtype A) (HIV-1).
For assay [24], the target named is HIV-1 Env of isolate MG RM-AG-005 (subtype AG) (HIV-1).

B1: PGT-145 (4995_P16) (antibody, V domains shown)
VH: QVQLVQSGAEVKKPGSSVKVSCKASGNSFSNHDVHWVRQATGQGLEWMGWMSHEGDKTGLAQKFQGRVTITRDSGASTVYMELRGLTADDTAIYYCLTGSKHRLRDYFLYNEYGPNYEEWGDYLATLDVWGHGTAVTVSS
VL: EVVITQSPLFLPVTPGEAASLSCKCSHSLQHSTGANYLAWYLQRPGQTPRLLIHLATHRASGVPDRFSGSGSGTDFTLKISRVESDDVGTYYCMQGLHSPWTFGQGTKVEIK
Consider B1, for which the “IC50, pseudovirus neutralization” value in [1] was greater than 50 µg/mL; in assay [2], 3.31 µg/mL; in assay [3], 6.6 µg/mL; in [4], greater than 50 µg/mL; in assay [5], greater than 50 µg/mL; in [6] it was 0.028 µg/mL. For the same molecule, the “IC50, pseudovirus neutralization” value in assay [7] was 1.36 µg/mL; in assay [8] it was 0.068 µg/mL; in [9] it was 3 ng/mL; in assay [10], 0.244 µg/mL; in assay [11] it was greater than 50 µg/mL; in assay [12], 0.23 µg/mL. Besides, the “IC50, pseudovirus neutralization” value in assay [13] is greater than 50 µg/mL; in [14], 0.056 µg/mL; in assay [15], 0.019 µg/mL; in assay [16], greater than 50 µg/mL; in assay [17], 0.128 µg/mL; in [18], 0.484 µg/mL. Besides, the “IC50, pseudovirus neutralization” value was found to be 0.235 µg/mL in [19]; 0.164 µg/mL in assay [20]; 1.76 µg/mL in assay [21]; 14.4 µg/mL in [22]; 0.062 µg/mL in assay [23]; 0.045 µg/mL in [24].

The record behind these values is patent US20160264649A1 (published 2016).
